{
  "source": "paper PMC6137059",
  "biological_target": "TcpK (Clostridium perfringens (plasmid pCW3)) (UniProt Q1PLI2)",
  "experiment": "analytical ultracentrifugation",
  "conditions": "24 uM TcpK, 12 uM DNA; recombinant protein; protein details: N-terminal His6-TEV, cleaved",
  "note": "For at least one entry, the source does not settle the construct or the ends of the probe. At least one verdict was read from the data and is not stated in words by the source.",
  "data": [
    {"sequence": "AAGGAACTTTACAGGGAACTTTA (double strand) [oriTmin23]", "values": [
      {"measurement": "binding result", "result": "binds"}
    ]}
  ]
}
